This note sets out measurements from paper PMC3458967.

The subject of this data set is T1, PerR (Fur-like protein, SSU05_0310) (Streptococcus suis serotype 2 strain SC-19).
T1 sequence (looked up): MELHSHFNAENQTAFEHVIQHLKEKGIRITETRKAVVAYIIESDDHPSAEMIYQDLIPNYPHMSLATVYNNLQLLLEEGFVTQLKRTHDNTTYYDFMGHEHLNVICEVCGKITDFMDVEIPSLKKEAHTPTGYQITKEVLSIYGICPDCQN
As to the kind of experiment: EMSA. Conditions: 2-8 ug PerR, 0.1 ug DNA, poly dIdC, no metal added; 20 mM Tris-HCl pH 8.0, 50 mM KCl, 5% glycerol, 0.5 mM DTT, 25 ug/ml BSA, 100 ng poly dIdC, 20 ul, room temperature 15 min; 5% native PAGE; recombinant protein; residues 1-151; protein details: His tag (pET-28a); label: none (ethidium bromide stain); probe letters rebuilt from the primers and the genome. (In EMSA bound probe runs differently from free probe, usually more slowly.)

A negative result means that nothing was seen under these conditions. Where a protein sequence is shown, tags need not be part of it. Construct, isoform or probe ends are uncertain for at least one entry.

“AGCTAGTGTGAGTGCTACGGCACACTTACTGAAACGAAAATTCATAAGAATCCTCCATTTTCTTTTTGTAATAATCTTCTACAATCATTATACAGCTAAGAAATGCAAAATTCAAGACTAATTCTGAACGTTCGTTTGAAAAACGAGTGAAAATAACAAGAAAACGACAGAAAACACGAACGTTACAACCGACTCTGAACTTGGTTTGGATTGTTTGTAATTAGTAGTCTTATGTTAGATTCCTGTTTCGTTTTTCGTGAAAATGGTAGAATAGTAGGAAATATAAGAGGAAGAGTAGAGATATG (double strand) [relA promoter]”: the binding result was “no binding”. Consider “TTGAGGTCAATGAGGTAGCAGCGGATGCGGCTGTTCGGGAAGTCAAAGAAGAATTAGGGATTGACAGTCGTGTCAATCAATTAGTTTTTGTCGTTGAAAATCAGTTTACACATGAAGGTATAGATTTTCACAATATCGAGTTTCATTTTATCGTTGAGCCTATTGGAGAAATGCCTAAGGAGATGATTGAAGGGAAGTTGAAACAACCGTGTGAATGGATTGCACTTGACAACCTTGTCAACTTAGATGTCGTACCAGCTTTTCTGACACAGGAATTACCAAACTGGAGTGGACAAGTTAAACATATCATGAACATGAAGGAGAGAACAACATG (double strand) [gidA promoter (negative control)]”, for which the binding result is reported as “no binding”. As for “TCCAGGACTGGTGGCGACAGGTTTGGATCCTAGAGATGGTACGATAGAAGCTTATGAAAGTAGAGGGAACCAAGCTTTGTTTGGTATCCAATGGCATCCAGAATTTTTATACAATGATTGTAAGCAACATCGAGACCTATTTCAGTATTTAGTAGATATATTTTAAGAGGGGTATCCCTCTTTTTATTATCAATACTTATAATTGCAAGGGTATTTGTTATAACGAAAAGTTATAACTTTCTATAAAAAAAGTCAATTAGTCAGAAAGAAAATTCTGTGTTAAGATAGATACAGTTAATTTAAGGAGATCATTTT (double strand) [metQIN promoter]”, the binding result was “binds”.
